Measured values from several laboratories, pooled; numbers as filed in NIAID ChemDB.

All rows: tests on isolated targets

Rows are shuffled and stem from different studies. Fold resistance: result on the changed form divided by that on wild type. Inhibition is in % at the dose shown (toxicity tests: loss of growth or viability). ICn: concentration for n% inhibition.

COc1ccc(OC)c(CCc2sc3nc(N)nc(N)c3c2C)c1 ; strain or isolate: TYPE 1 ; target: Dihydrofolate reductase ; agent: Cryptosporidium parvum ; endpoint: IC50 ; value: >10 µM
O=C(CCCCCl)Nc1nnc(NCC2CCCCC2)s1 ; target: Polymerase ; agent: Human cytomegalovirus ; endpoint: IC50 ; value: >25 µM
O=C(O)c1ccc2c(c1)nc(-c1ccc3nc(C(c4ccccc4)c4ccccc4)ccc3c1)n2C1CCCCC1 ; target: NS5B polymerase ; agent: Hepatitis C virus ; tested at: 33 µM ; endpoint: inhibition ; value: 98.21%
Nc1ccn([C@@H]2CS[C@H](COP(=O)(O)OP(=O)(O)OP(=O)(O)O)O2)c(=O)n1 ; target: Reverse transcriptase ; read by: radiometric ; mutations: RT-K103N ; agent: HIV ; endpoint: fold resistance ; value: 0.53
Cc1cc(-c2nc3cc(C(=O)O)ccc3n2C2CCCCC2)cc2ccc(-c3ccccc3-c3ccc(Cl)cc3)nc12 ; target: NS5B polymerase ; agent: Hepatitis C virus ; tested at: 33 µM ; endpoint: inhibition ; value: 97.75%
CN(Cc1ccc2nc(N)nc(N)c2n1)c1ccc(Cl)c(Cl)c1 ; strain or isolate: TYPE 2 ; target: Dihydrofolate reductase ; agent: Cryptosporidium parvum ; endpoint: IC50 ; value: 0.02 µM
FC(F)(F)c1cccc(N2CCN(c3cncc(-c4csc5ccccc45)n3)CC2)c1 ; target: UL97 kinase ; agent: Cytomegalovirus ; endpoint: IC50 ; value: <100 µM
O=C1NC(=S)SC1=Cc1ccc(-c2ccc(Cl)c(Cl)c2)s1 ; target: NS5 polymerase ; agent: Bovine viral diarrhea virus ; endpoint: IC50 ; value: ≤1 µM
O=C(Nc1nnc(NCc2ccc(F)cc2)s1)c1cccc([N+](=O)[O-])c1 ; target: Polymerase ; agent: Human cytomegalovirus ; endpoint: IC50 ; value: >25 µM
O=C(O)c1ccc(N2C(=O)C(=Cc3ccc(-c4cc([N+](=O)[O-])ccc4Cl)o3)SC2=S)cc1 ; target: NS5 polymerase ; agent: Bovine viral diarrhea virus ; endpoint: IC50 ; value: ≤1 µM
OCc1ccc(-c2cncc(N3CCN(c4ccccc4F)CC3)n2)cc1 ; target: UL97 kinase ; agent: Cytomegalovirus ; tested at: 1 µM ; endpoint: inhibition ; value: <50%
O=C(O)c1ccc(N2C(=O)C(=Cc3ccc(-c4cc5ccccc5s4)o3)SC2=S)cc1 ; target: NS5 polymerase ; agent: Bovine viral diarrhea virus ; endpoint: IC50 ; value: ≤1 µM
O=C(Nc1nnc(NC2CC2)s1)c1cc2ccccc2s1 ; target: Polymerase ; agent: Human cytomegalovirus ; endpoint: IC50 ; value: >25 µM
CSc1ccc(-c2cncc(N3CCN(c4ccc(Cl)c(Cl)c4)CC3)n2)cc1 ; target: UL97 kinase ; agent: Cytomegalovirus ; endpoint: IC50 ; value: <100 µM
O=C(O)c1ccc(N2C(=O)C(=Cc3ccc(-c4ccco4)o3)SC2=S)cc1 ; target: NS5 polymerase ; agent: Bovine viral diarrhea virus ; endpoint: IC50 ; value: ≤1 µM
COc1cccc(-c2ccc3cc(-c4nc5cc(C(=O)O)ccc5n4C4CCCCC4)ccc3n2)c1 ; target: NS5B polymerase ; agent: Hepatitis C virus ; tested at: 100 µM ; endpoint: inhibition ; value: 97.89%
COc1cccc(N2CCN(c3cncc(-c4ccc5ccccc5c4)n3)CC2)c1 ; target: UL97 kinase ; agent: Cytomegalovirus ; tested at: 1 µM ; endpoint: inhibition ; value: <50%
O=C(/C=C/c1ccccc1)Nc1nnc(NCCCCc2ccccc2)s1 ; target: Polymerase ; agent: Human cytomegalovirus ; endpoint: IC50 ; value: <25 µM
Cc1cc(C)cc(-c2ccc(C=C3SC(=S)N(c4ccc(C(=O)O)cc4)C3=O)o2)c1 ; target: NS5 polymerase ; agent: Bovine viral diarrhea virus ; endpoint: IC50 ; value: ≤1 µM
CC(C)c1cc(C(C)C)c(C(=O)Nc2nnc(NCCCNC3CCCCC3)s2)c(C(C)C)c1 ; target: Polymerase ; agent: Human cytomegalovirus ; endpoint: IC50 ; value: >25 µM
CC(C)CC(NC(=O)c1ccc2c(c1)nc(-c1ccc3nc(-c4ccccc4)cnc3c1)n2C1CCCCC1)C(=O)O ; target: NS5B polymerase ; agent: Hepatitis C virus ; tested at: 33 µM ; endpoint: inhibition ; value: 93.18%
Cc1ccc(-c2ccc(C=C3SC(=S)N(c4ccc(C(=O)O)cc4)C3=O)o2)nc1 ; target: NS5 polymerase ; agent: Bovine viral diarrhea virus ; endpoint: IC50 ; value: ≤1 µM
O=C(Nc1nnc(NCCCN2CCCC2=O)s1)c1ccc([N+](=O)[O-])o1 ; target: Polymerase ; agent: Human cytomegalovirus ; endpoint: IC50 ; value: >25 µM
Fc1ccc(N2CCN(c3cncc(-c4ccc(F)c(Cl)c4)n3)CC2)c(F)c1 ; target: UL97 kinase ; agent: Cytomegalovirus ; tested at: 10 µM ; endpoint: inhibition ; value: >15%
O=C(O)c1ccc2c(c1)nc(-c1ccc3nc(-c4ccccc4)cc(NCCCn4ccnc4)c3c1)n2C1CCCCC1 ; target: NS5B polymerase ; agent: Hepatitis C virus ; tested at: 100 µM ; endpoint: inhibition ; value: 95.64%
O=Cc1ccc(C=C2SC(=S)N(c3ccc(C(=O)O)cc3)C2=O)o1 ; target: NS5 polymerase ; agent: Bovine viral diarrhea virus ; endpoint: IC50 ; value: ≤1 µM
O=C(O)c1ccc2c(c1)nc(-c1ccc3nc(-c4cc(O)ccc4-c4ccc(Cl)cc4)ccc3c1)n2C1CCCCC1 ; target: NS5B polymerase ; agent: Hepatitis C virus ; tested at: 33 µM ; endpoint: inhibition ; value: 101%
COc1ccc(N2CCN(c3cncc(-c4ccc(F)cc4F)n3)CC2)cc1OC ; target: UL97 kinase ; agent: Cytomegalovirus ; endpoint: IC50 ; value: <100 µM
CCCc1ccc(-c2ccc(C=C3SC(=S)N(c4ccc(C(=O)O)cc4)C3=O)o2)s1 ; target: NS5 polymerase ; agent: Bovine viral diarrhea virus ; endpoint: IC50 ; value: ≤1 µM
Cc1ccc(C(=O)Nc2nnc(NCc3ccc4c(c3)OCO4)s2)cc1 ; target: Polymerase ; agent: Human cytomegalovirus ; endpoint: IC50 ; value: >25 µM
COc1cccc(O)c1-c1ccc2cc(-c3nc4cc(C(=O)O)ccc4n3C3CCCCC3)ccc2n1 ; target: NS5B polymerase ; agent: Hepatitis C virus ; tested at: 100 µM ; endpoint: inhibition ; value: 102.4%
COc1ccc(OC)c(CCc2cc3c(N)nc(N)nc3s2)c1 ; strain or isolate: TYPE 2 ; target: Dihydrofolate reductase ; agent: Cryptosporidium parvum ; endpoint: IC50 ; value: >10 µM
Cc1cc(C)cc(-c2ccc(C=C3SC(=S)N(CCC(=O)O)C3=O)o2)c1 ; target: NS5 polymerase ; agent: Bovine viral diarrhea virus ; endpoint: IC50 ; value: ≤1 µM
O=C(O)c1ccc2c(c1)nc(-c1ccc3nc(-c4cc(OCC(=O)N5CCCC5)ccc4-c4ccccc4)ccc3c1)n2C1CCCCC1 ; target: NS5B polymerase ; agent: Hepatitis C virus ; tested at: 100 µM ; endpoint: inhibition ; value: 97.86%
CC(=O)c1cccc(-c2cncc(N3CCN(c4cccc(C(F)(F)F)c4)CC3)n2)c1 ; target: UL97 kinase ; agent: Cytomegalovirus ; tested at: 10 µM ; endpoint: inhibition ; value: >15%
COc1ccc(-c2ccc(C(F)(F)F)cc2)c(-c2ccc3cc(-c4nc5cc(C(=O)O)ccc5n4C4CCCCC4)ccc3n2)c1 ; target: NS5B polymerase ; agent: Hepatitis C virus ; tested at: 100 µM ; endpoint: inhibition ; value: 99.29%
COc1ccccc1N1CCN(c2cncc(-c3ccc(C)cc3)n2)CC1 ; target: UL97 kinase ; agent: Cytomegalovirus ; endpoint: IC50 ; value: <100 µM
COc1cc(CN2CCc3nc(N)nc(N)c3C2)c(Br)c(OC)c1OC ; strain or isolate: TYPE 1 ; target: Dihydrofolate reductase ; agent: Cryptosporidium parvum ; endpoint: IC50 ; value: 2.1 µM

The first 5 rows once more:

COc1ccc(OC)c(CCc2sc3nc(N)nc(N)c3c2C)c1 ; strain or isolate: TYPE 1 ; target: Dihydrofolate reductase ; agent: Cryptosporidium parvum ; endpoint: IC50 ; value: >10 µM
O=C(CCCCCl)Nc1nnc(NCC2CCCCC2)s1 ; target: Polymerase ; agent: Human cytomegalovirus ; endpoint: IC50 ; value: >25 µM
O=C(O)c1ccc2c(c1)nc(-c1ccc3nc(C(c4ccccc4)c4ccccc4)ccc3c1)n2C1CCCCC1 ; target: NS5B polymerase ; agent: Hepatitis C virus ; tested at: 33 µM ; endpoint: inhibition ; value: 98.21%
Nc1ccn([C@@H]2CS[C@H](COP(=O)(O)OP(=O)(O)OP(=O)(O)O)O2)c(=O)n1 ; target: Reverse transcriptase ; read by: radiometric ; mutations: RT-K103N ; agent: HIV ; endpoint: fold resistance ; value: 0.53
Cc1cc(-c2nc3cc(C(=O)O)ccc3n2C2CCCCC2)cc2ccc(-c3ccccc3-c3ccc(Cl)cc3)nc12 ; target: NS5B polymerase ; agent: Hepatitis C virus ; tested at: 33 µM ; endpoint: inhibition ; value: 97.75%